Assay results from PubChem BioAssay AID1053175 (ICCB-Longwood Screening Facility, Harvard Medical School, 2014).
The list shows a part of the results, in another mix than the full data. The source made the active and inactive calls.

Assay: E. coli growth inhibition, primary screen, OD600 (AID 1053175)
Details: Escherichia coli growth, OD600, 23 h; active compounds read low

| SMILES | OD600 absorbance |
| --- | --- |
| COc1ccc(NC2CCN(C(=O)OC(C)(C)C)CC2)cc1 | inactive: 0.7 |
| CN1CCN(CCOC(=O)C(O)(c2ccccc2)c2ccccc2)CC1 | inactive: 0.668 |
| O=C(NCC1(N2CCOCC2)CCCCC1)c1cc(=O)[nH]c2ccccc12 | inactive: 0.695 |
| COc1cc(C(=O)NCC2(N3CCCCC3)CCCCC2)ccc1OC(F)F | inactive: 0.67 |
| O=C(NCC1(N2CCCCC2)CCCCC1)c1cccc(C(F)(F)F)c1 | inactive: 0.682 |
| O=C(NCC1(N2CCOCC2)CCCCC1)c1cc(F)c(F)cc1Cl | inactive: 0.708 |
| COc1cc(OC)c(C(=O)NCC2(N(C)C)CCCCC2)cc1OC | inactive: 0.666 |
| CN(C)c1cccc(C(=O)NCC2(N3CCCCC3)CCCCC2)c1 | inactive: 0.728 |
| COc1ccc(CN(CCCl)CCCl)cc1Cl | inactive: 0.689 |
| CC(C)c1ccc(NC2CCN(C(=O)OC(C)(C)C)CC2)cc1 | inactive: 0.691 |
| CCCOc1ccc(C(=O)NCC2(N(C)C)CCCCC2)cc1OC | inactive: 0.697 |
| O=C(NCC1(N2CCCCC2)CCCCC1)c1cncc(Br)c1 | inactive: 0.674 |
| COc1ccc(C(=O)NCC2(N3CCOCC3)CCCCC2)cc1OC | inactive: 0.668 |
| O=C(NCC1(N2CCOCC2)CCCCC1)c1cc(Br)ccc1Cl | inactive: 0.689 |
| COc1cc(C(=O)NCC2(N3CCOCC3)CCCCC2)cc(OC)c1C | inactive: 0.676 |
| CCc1cc(C(=O)NCC2(N3CCCCC3)CCCCC2)sc1C | inactive: 0.674 |
| O=C(OC1CN2CCC1CC2)C1c2ccccc2C=Cc2ccccc21 (stereo unspecified) | inactive: 0.738 |
| CCOC(=O)N1CCC(Nc2ccc(C)cc2)CC1 | inactive: 0.618 |
| CC(C)(C)OC(=O)N1CCC(N(C(=O)c2ccccc2)c2ccc(Cl)cc2)CC1 | inactive: 0.677 |
| N#Cc1ccc(C(=O)NCC2(N3CCCCC3)CCCCC2)cc1 | inactive: 0.71 |
| CCCN1CCC(Nc2cc(OC)cc(OC)c2)CC1 | inactive: 0.676 |

| SMILES | OD600 absorbance |
| --- | --- |
| c1ccc(CN2CCC(Nc3ccccc3)CC2)cc1 | inactive: 0.746 |
| CN(C)C1(CNC(=O)c2cccc(C#N)c2)CCCCC1 | inactive: 0.667 |
| Cc1ccc(NC2(C#N)CCN(Cc3ccccc3)CC2)cc1 | inactive: 0.643 |
| Fc1ccccc1NC1CCN(Cc2ccccc2)CC1 | inactive: 0.66 |
| Cc1ccc(C(=O)NCC2(N3CCCCC3)CCCCC2)o1 | inactive: 0.634 |
| COc1cc(OC)cc(C(=O)NCC2(N3CCCCC3)CCCCC2)c1 | inactive: 0.683 |
| CC(=O)N(c1ccccc1)C1CCNCC1 | inactive: 0.642 |
| CN(C)c1ccc(C(=O)NCC2(N3CCCCC3)CCCCC2)cc1 | inactive: 0.642 |
| Cn1c(=O)[nH]cc(N(CCCl)CCCl)c1=O | inactive: 0.713 |
| O=C(NCC1(N2CCCCC2)CCCCC1)c1ccco1 | inactive: 0.689 |
| CCN1CCC(Nc2cccc(F)c2)CC1 | inactive: 0.712 |
| Cc1ccccc1NC1(C#N)CCN(Cc2ccccc2)CC1 | inactive: 0.666 |
| CCCOc1ccc(C(=O)NCC2(N(C)C)CCCCC2)cc1 | inactive: 0.67 |
| O=C(O)C1(Nc2ccccc2)CCN(Cc2ccccc2)CC1 | inactive: 0.66 |
| CC(C)(C)OC(=O)N1CCC(Nc2ccccc2)CC1 | inactive: 0.668 |
| CN1CCC(Nc2ccc(F)c(Cl)c2)CC1 | inactive: 0.616 |
| CCOc1ncccc1C(=O)NCC1(N2CCOCC2)CCCCC1 | inactive: 0.622 |
| CN1CCC(Nc2ccc(Cl)cc2)CC1 | inactive: 0.661 |
| COc1cccc(C(=O)N(c2cc(C)cc(C)c2)C2CCN(C(=O)OC(C)(C)C)CC2)c1 | inactive: 0.678 |
| COc1cc(OC)cc(C(=O)NCC2(N3CCOCC3)CCCCC2)c1 | inactive: 0.673 |
